Measured values from PMC5431807, “Structural Basis for Importin-α Binding of the Human Immunodeficiency Virus Tat” (Scientific Reports, 2017).

Biological target: importin-α (Mus musculus, UniProt P52293)
Assay: GST-pulldown assay for affinity determination (importin-α titrated on GST-Tat:NLS/CPP beads)
Conditions: read-out: binding affinity (dissociation constant, KD); GST-Tat:NLS/CPP on glutathione agarose beads; mouse importin-α lacking IBB domain (residues 70–529), two-fold serial dilutions from 30 µM; 1 h at 4 °C; SDS-PAGE, ImageJ; one-site specific binding, Prism 7; from three replicates

## GRKKRRQRRRAPQN [Tat:NLS/CPP]
  Kd: 1200 ± 200 nM
